Measured values from several laboratories, pooled; numbers as filed in NIAID ChemDB.

All rows: tests in culture

An empty or dashed field is not shown. Zones are inhibition diameters on agar. Rows are shuffled and stem from different studies.

smiles,read-out,method,tested at,agent,strain or isolate,result
CC[C@H]1OC(=O)[C@H](C)[C@@H](OC(=O)c2ccccc2)[C@H](C)[C@@H](O[C@@H]2O[C@H](C)C[C@H](N(C)C)[C@H]2O)C(C)(O)C[C@@H](C)/C(=N\OCCCOc2ccccc2)[C@H](C)[C@@H](O)[C@]1(C)O,MIC,,,Mycobacterium avium complex,20096 (clarithromycin-resistant),6.25 µg/mL
COc1ccc(CCn2c(C)nn(Cc3cn(CCCCCCCCCCn4cc(Cn5nc(C)n(CCc6ccc(OC)cc6)c5=O)nn4)nn3)c2=O)cc1,zone,agar diffusion,20 mg/mL,Mycobacterium luteus,,0.9 mm
CCCCCCCCCCCCO/N=C1\[C@H](C)CC(C)(O)[C@H](O[C@@H]2O[C@H](C)C[C@H](N(C)C)[C@H]2O)[C@@H](C)[C@H](OC2C[C@@](C)(OC)[C@@H](O)[C@H](C)O2)[C@@H](C)C(=O)O[C@H](CC)[C@@](C)(O)[C@H](O)[C@H]1C,MIC,,,Mycobacterium avium complex,20096 (clarithromycin-resistant),25 µg/mL
CO[C@@]1(NC(=O)Cc2cccs2)C(=O)N2C(C(=O)O)=C(COC(N)=O)CS[C@@H]21,MIC,,,Mycobacterium fortuitum,914-8,6.25 µg/mL
CCCC(=O)O[C@H]1[C@H](C)[C@@H](O[C@@H]2O[C@H](C)C[C@H](N(C)C)[C@H]2O)C(C)(O)C[C@@H](C)/C(=N\OCCCOc2ccccc2)[C@H](C)[C@@H](O)[C@](C)(O)[C@@H](CC)OC(=O)[C@@H]1C,MIC,,,Mycobacterium avium complex,20039 (clarithromycin-susceptible),6.25 µg/mL
CO[C@@]1(NC(=O)C(C(=O)O)c2ccc(O)cc2)C(=O)N2C(C(=O)O)=C(CSc3nnnn3C)CO[C@@H]21,MIC,,,Mycobacterium fortuitum,1047,>100 µg/mL
COc1ccc(/C=N/n2c(C)nn(Cc3cn(CCCCCCCCCCn4cc(Cn5nc(C)n(/N=C/c6ccc(OC)cc6)c5=O)nn4)nn3)c2=O)cc1,zone,agar diffusion,20 mg/mL,Mycobacterium luteus,,0.6 mm
CO[C@H]1/C=C/O[C@@]2(C)Oc3c(C)c(O)c4c(O)c(c(/C=N/N5CCN(C6CCCC6)CC5)c(O)c4c3C2=O)NC(=O)/C(C)=C\C=C\[C@H](C)[C@H](O)[C@@H](C)[C@@H](O)[C@@H](C)[C@H](OC(C)=O)[C@@H]1C,MIC,,,Mycobacterium avium intracellulare,141,0.5 µg/mL
CO[C@@]1(NC(=O)CCCC(N)C(=O)O)C(=O)N2C(C(=O)O)=C(COC(N)=O)CSC21,MIC,,,Mycobacterium fortuitum,1260,>100 µg/mL
CCCCC(=O)O[C@H]1[C@H](C)OC(O[C@H]2[C@H](C)[C@@H](O[C@@H]3O[C@H](C)C[C@H](N(C)C)[C@H]3O)C(C)(O)C[C@@H](C)/C(=N\OCCCOc3ccccc3)[C@H](C)[C@@H](O)[C@](C)(O)[C@@H](CC)OC(=O)[C@@H]2C)C[C@@]1(C)OC,MIC,,,Mycobacterium avium complex,20096 (clarithromycin-resistant),1.56 µg/mL
COc1ccc(CCn2c(C)nn(Cc3cn(CCCCCn4cc(Cn5nc(C)n(CCc6ccc(OC)cc6)c5=O)nn4)nn3)c2=O)cc1,zone,agar diffusion,20 mg/mL,Mycobacterium luteus,,0.9 mm
CC[C@H]1OC(=O)[C@H](C)[C@@H](OC(=O)CCc2ccccc2)[C@H](C)[C@@H](O[C@@H]2O[C@H](C)C[C@H](N(C)C)[C@H]2O)C(C)(O)C[C@@H](C)/C(=N\OCCCOc2ccccc2)[C@H](C)[C@@H](O)[C@]1(C)O,MIC,,,Mycobacterium avium complex,20092 (clarithromycin-resistant),6.25 µg/mL
COc1ccc(CCn2c(C)nn(Cc3cn(CCCCCCn4cc(Cn5nc(C)n(CCc6ccc(OC)cc6)c5=O)nn4)nn3)c2=O)cc1,zone,agar diffusion,20 mg/mL,Mycobacterium luteus,,0.9 mm
CO[C@@]1(NC(=O)Cn2cnnn2)C(=O)N2C(C(=O)O)=C(CSc3nnc(C)s3)CSC21,MIC,,,Mycobacterium fortuitum,1045,>100 µg/mL
COc1ccc(/C=N/n2c(C)nn(Cc3cn(CCCCCCn4cc(Cn5nc(C)n(/N=C/c6ccc(OC)cc6)c5=O)nn4)nn3)c2=O)cc1,zone,agar diffusion,20 mg/mL,Mycobacterium luteus,,0.6 mm
CO[C@@]1(NC(=O)CCCC(N)C(=O)O)C(=O)N2C(C(=O)O)=C(COC(C)=O)CSC21,MIC,,,Mycobacterium fortuitum,AO5,>100 µg/mL
Cc1nn(Cc2cn(CCCCCn3cc(Cn4nc(C)n(/N=C/c5cccs5)c4=O)nn3)nn2)c(=O)n1/N=C/c1cccs1,zone,agar diffusion,20 mg/mL,Mycobacterium luteus,,0.6 mm
CCCCO/N=C1\[C@H](C)CC(C)(O)[C@H](O[C@@H]2O[C@H](C)C[C@H](N(C)C)[C@H]2O)[C@@H](C)[C@H](O[C@H]2C[C@@](C)(OC)[C@@H](OC(C)=O)[C@H](C)O2)[C@@H](C)C(=O)O[C@H](CC)[C@@](C)(O)[C@H](O)[C@H]1C,MIC,,,Mycobacterium avium complex,20092 (clarithromycin-resistant),>50 µg/mL

2 of the rows above, restated:

smiles	read-out	method	tested at	agent	strain or isolate	result
CO[C@@]1(NC(=O)CCCC(N)C(=O)O)C(=O)N2C(C(=O)O)=C(COC(N)=O)CSC21	MIC			Mycobacterium fortuitum	1260	>100 µg/mL
Cc1nn(Cc2cn(CCCCCn3cc(Cn4nc(C)n(/N=C/c5cccs5)c4=O)nn3)nn2)c(=O)n1/N=C/c1cccs1	zone	agar diffusion	20 mg/mL	Mycobacterium luteus		0.6 mm